From publication PMC12069340 (Frontiers in Cellular and Infection Microbiology, 2025) come the findings set out here.

One may read the viability as a read-out of living cells in per cent, often relative to untreated cells.

A short description of this series: in vitro. Particulars: human, Relative Viability (%).

In the case of `CC[N+](CC)(CC)CCOc1cccc(OCC[N+](CC)(CC)CC)c1OCC[N+](CC)(CC)CC` [Gallamine Triethiodide], the viability at 20 µM was 103%.
